Pooled drug test results. Numbers come from NIAID ChemDB, via PubChem.

Common to all: host cell toxicity; cell line: MT-4; endpoint: CC50

An empty or dashed field is not shown. CCn: concentration that lowers growth or viability of the cells by n%. Lines come from different laboratories, so protocols vary.

SMILES	read by	value
CC1(C)C2=CC(=O)C(c3ccccc3)([N+](=O)[O-])C(=O)N2c2ccc(Cl)cc21		29 µM
OC[C@@H]1CC[C@H](n2cnc3c(=S)nc[nH]c32)O1		0.15 µM
Cc1cn([C@H]2C[C@H](N=[N+]=[N-])[C@@H](CO)O2)c(=O)[nH]c1=O	MTT	>7.5 µM
Cn1cnc2ncn([C@@H]3O[C@H](CO[Si](C)(C)C(C)(C)C)C4(OS(=O)(=O)C=C4N)[C@H]3O[Si](C)(C)C(C)(C)C)c2c1=O		89 µg/mL
Cc1ccnc2c1NC(=O)c1cccnc1N2C1CC1	MTT / absorbance	>4 µM
Cc1cc(C)cc(CC(N)C(=O)C(C)C)c1	MTT	>100 µM
N#Cc1ccc(Nc2nc(Oc3ccc(-c4ccc(C#N)cc4)cc3)c3sccc3n2)cc1	MTT	>280.8 µM
CCn1cnc2ncn([C@@H]3O[C@H](CO[Si](C)(C)C(C)(C)C)C4(OS(=O)(=O)C=C4N)[C@H]3O[Si](C)(C)C(C)(C)C)c2c1=O		>100 µg/mL
O=c1[nH]cnc2c1ncn2[C@H]1CC[C@@H](CO)O1		>100 µM
CCC(C)Oc1cc(N)nc(Sc2cc(C)cc(C)c2)n1		88 µM
CC(C)(C)OC(=O)N1CCCN(C(=O)OC(C)(C)C)CCN(C(=O)OC(C)(C)C)CCCN(C(=O)CCCC(=O)OC[C@H]2O[C@@H](n3ccc(N)nc3=O)CS2)CC1		100 µM
Cc1cn([C@H]2C[C@H](N=[N+]=[N-])[C@@H](CO)O2)c(=O)[nH]c1=O		>15 µM
O=C(N/N=C/c1cc([N+](=O)[O-])ccc1Cl)c1csc(N2N=C(c3ccccc3)CC2c2ccc(Cl)cc2)n1	MTT / absorbance	>125 µM
Cc1cn([C@H]2C[C@H](N=[N+]=[N-])[C@@H](CO)O2)c(=O)[nH]c1=O		>100 µM
O=C(O[C@@H]1Cc2c(O)cc(O)cc2O[C@@H]1c1cc(O)c(O)c(O)c1)c1cc(O)c(O)c(O)c1		31 µg/mL
N#Cc1ccc(Nc2nc(Oc3ccc(-c4ccc(C#N)cc4)cc3F)c3sccc3n2)cc1	MTT	>269.9 µM
CC(C)(C)OC(=O)N1CCCN(C(=O)OC(C)(C)C)CCN(C(=O)OC(C)(C)C)CCCN(CCCCC(=O)OC[C@@H]2CC[C@H](n3ccc(N)nc3=O)O2)CC1		10 µM
CCC(C)Oc1cc(=O)[nH]c(Sc2ccccc2Cl)n1		150 µM
Fc1cccc(F)c1CCNC(=S)Nc1nccs1		84 µM
O=C(N/N=C/c1ccc(O)cc1)c1csc(N2N=C(c3ccccc3)CC2c2ccc(Cl)cc2)n1	MTT / absorbance	17.75 µM
Cc1cn([C@H]2C=C[C@@H](COC(=O)CCCCN3CCCN(C(=O)OC(C)(C)C)CCN(C(=O)OC(C)(C)C)CCCN(C(=O)OC(C)(C)C)CC3)O2)c(=O)[nH]c1=O		50 µM
Cc1ccnc2c1NC(=O)c1cccnc1N2C1CC1	MTT	>15.9 µM
CCC(C)Oc1cc(=O)[nH]c(S(=O)(=O)c2cc(C)cc(C)c2)n1		119 µM
Cc1cn([C@H]2C[C@H](N=[N+]=[N-])[C@@H](CO)O2)c(=O)[nH]c1=O	MTT	8.3 µg/mL
CC(C)c1nc(SCC(N)=O)n(COCc2ccccc2)c1CC1CCCCC1	MTT	84.32 µM
NNC(=O)c1csc(N2N=C(c3ccccc3)CC2c2ccc(Cl)cc2)n1	MTT / absorbance	>125 µM
COc1cc(-c2ccc(C#N)cc2)ccc1Oc1nc(Nc2ccc(C#N)cc2)nc2ccsc12	MTT	>263.1 µM
Cc1ccc(/C=N/NC(=O)c2csc(N3N=C(c4ccccc4)CC3c3ccc(Cl)cc3)n2)cc1	MTT / absorbance	>125 µM
CCOCn1c2c(c(=O)[nH]c1=O)Nc1ccccc1S2	MTT	50 µg/mL
Cc1cc(C)cc(S(=O)(=O)c2c(C(=O)NCCN3CCCC3)[nH]c3ccc(Cl)cc23)c1		>1 µM
Nc1ncnc2c1ncn2C[C@@H]1C[C@@]1(CO)c1ccccc1		<2.29 µg/mL
CC(=O)SCCOP(=O)(OCCSC(C)=O)OC[C@@H]1CC[C@H](n2cnc3c(N)ncnc32)O1		16 µM
CC(C)=CCN1Cc2cc(Cl)cc3[nH]c(=S)n(c23)C[C@@H]1C		47 µM
CC(C)(C)[Si](C)(C)OC[C@H]1O[C@@H](n2cnc3nc[nH]c(=O)c32)[C@H](O[Si](C)(C)C(C)(C)C)C12OS(=O)(=O)C=C2N		8.5 µg/mL
Nc1ccn([C@H]2CC[C@@H](CO)O2)c(=O)n1		199.7 µM
O=c1ccn(C[C@@H]2C[C@@]2(CO)c2ccccc2)c(=O)[nH]1		>100 µg/mL
CC(C)(C)[Si](C)(C)OC[C@H]1O[C@@H](n2cnc3c(=O)[nH]cnc32)[C@H](O[Si](C)(C)C(C)(C)C)C12OS(=O)(=O)C=C2N		7.8 µg/mL
CC(C)(C)OC(=O)N1CCCN(C(=O)OC(C)(C)C)CCN(C(=O)OC(C)(C)C)CCCN(CCCCC(=O)Nc2ccn([C@H]3CS[C@@H](COC(=O)CCCCN4CCCN(C(=O)OC(C)(C)C)CCN(C(=O)OC(C)(C)C)CCCN(C(=O)OC(C)(C)C)CC4)O3)c(=O)n2)CC1		50 µM
CCC(CCC(C)C1CCC2C3C[C@@H](O)[C@@]4(O)C[C@@H](O)CCC4(C)C3CCC12C)C(C)C	MTT	>1000 µg/mL
c1cc(CN2CCCNCCNCCCNCC2)ccc1CN1CCCNCCNCCCNCC1		>200 µM
Cc1cc(C)cc(S(=O)(=O)c2c(C(=O)NCCn3cccc3)[nH]c3ccc(Cl)cc23)c1		>1 µM
c1cc(CN2CCCNCCNCCCNCC2)ccc1CN1CCCNCCNCCCNCC1		55 µM
Cc1cc(C)cc(S(=O)(=O)c2c(C(=O)NCN3CCOCC3)[nH]c3ccc(Cl)cc23)c1		>1 µM
O=c1[nH]c(=O)n(COCc2ccccc2)c2c1Nc1ccccc1S2	MTT	23 µg/mL
O=C(N/N=C/c1ccc(OCc2ccccc2)cc1)c1csc(N2N=C(c3ccccc3)CC2c2ccc(Cl)cc2)n1	MTT / absorbance	>125 µM
CO[C@@H]1C=C2C3CC(C)(C)CC[C@]3(C(=O)O)CC[C@@]2(C)[C@]2(C)CCC3C(C)(C)[C@@H](O)CC[C@]3(C)C12	ATP / luminescence	>10 µM
OC[C@@H]1CC[C@H](n2cnc3c(Cl)ncnc32)O1		101.1 µM
Cc1cn([C@H]2C=C[C@@H](COC(=O)CCCC(=O)N3CCCN(C(=O)OC(C)(C)C)CCN(C(=O)OC(C)(C)C)CCCN(C(=O)OC(C)(C)C)CC3)O2)c(=O)[nH]c1=O		50 µM
Cc1cn(C[C@@H]2C[C@@]2(CO)c2ccccc2)c(=O)[nH]c1=O		>100 µg/mL
CN(C)c1ncnc2c1ncn2[C@@H]1O[C@H](CO[Si](C)(C)C(C)(C)C)C2(OS(=O)(=O)C=C2N)[C@H]1O[Si](C)(C)C(C)(C)C		10 µg/mL
S=C(NCCc1ccccc1)Nc1ccccn1		389 µM
Nc1ccn([C@H]2CC[C@@H](CO)O2)c(=O)n1		>100 µM
C/C=C1/C(=O)OCC[C@@H]1C=O	ATP / luminescence	>10 µM
CC1(C)S[C@H]([C@H](NC(=O)Cc2ccccc2)C(=O)NCc2ccccc2)N[C@H]1C(=O)NCCNC(=O)[C@@H]1N[C@@H]([C@H](NC(=O)Cc2ccccc2)C(=O)NCc2ccccc2)SC1(C)C		>110 µM
CCc1nc(SCC(N)=O)n(COCc2ccccc2)c1Cc1cc(C)cc(C)c1	MTT	37.56 µM
C=C(C)[C@@]12OC3(/C=C/C=C/CCCCCCCCCC)OC1C1[C@@H]4O[C@]4(CO)[C@@H](O)[C@]4(O)C(=O)C(C)=CC4C1(O3)[C@H](C)[C@H]2OC(C)=O		15.3 µM
Cc1cn([C@H]2C[C@H](N=[N+]=[N-])[C@@H](CO)O2)c(=O)[nH]c1=O		>20 µM
CC(C)c1nc(SCC(N)=O)n(Cc2ccncc2)c1CC1CCCCC1	MTT	>100 µM
Cc1cc(C)cc(S(=O)(=O)c2c(C(=O)NCc3ccccc3)[nH]c3ccc(Br)cc23)c1		>1 µM
Nc1ncnc2c1ncn2CCOCP(=O)(OCCSSCCO)OCCSSCCO		20 µM
CCC(C)Oc1cc(N)nc(Sc2ccccc2OC)n1		71 µM
CCOCn1c(SCC(N)=O)nc(C(C)C)c1Cc1cc(C)cc(C)c1	MTT	>100 µM
Cc1ccc(NC(=S)NCCc2ccccc2)nc1		368 µM
CCC(C)Oc1cc(=O)[nH]c(S(=O)(=O)c2cccc(Cl)c2)n1		104 µM
O=C(N/N=C/c1ccccc1Cl)c1csc(N2N=C(c3ccccc3)CC2c2ccc(Cl)cc2)n1	MTT / absorbance	>125 µM

Again, the opening 10 rows:

SMILES	read by	value
CC1(C)C2=CC(=O)C(c3ccccc3)([N+](=O)[O-])C(=O)N2c2ccc(Cl)cc21		29 µM
OC[C@@H]1CC[C@H](n2cnc3c(=S)nc[nH]c32)O1		0.15 µM
Cc1cn([C@H]2C[C@H](N=[N+]=[N-])[C@@H](CO)O2)c(=O)[nH]c1=O	MTT	>7.5 µM
Cn1cnc2ncn([C@@H]3O[C@H](CO[Si](C)(C)C(C)(C)C)C4(OS(=O)(=O)C=C4N)[C@H]3O[Si](C)(C)C(C)(C)C)c2c1=O		89 µg/mL
Cc1ccnc2c1NC(=O)c1cccnc1N2C1CC1	MTT / absorbance	>4 µM
Cc1cc(C)cc(CC(N)C(=O)C(C)C)c1	MTT	>100 µM
N#Cc1ccc(Nc2nc(Oc3ccc(-c4ccc(C#N)cc4)cc3)c3sccc3n2)cc1	MTT	>280.8 µM
CCn1cnc2ncn([C@@H]3O[C@H](CO[Si](C)(C)C(C)(C)C)C4(OS(=O)(=O)C=C4N)[C@H]3O[Si](C)(C)C(C)(C)C)c2c1=O		>100 µg/mL
O=c1[nH]cnc2c1ncn2[C@H]1CC[C@@H](CO)O1		>100 µM
CCC(C)Oc1cc(N)nc(Sc2cc(C)cc(C)c2)n1		88 µM